Experimental data as given in ChEMBL document CHEMBL4811290, “Exploiting the hydrophobic channel of the NNIBP: Discovery of novel diarylpyrimidines as HIV-1 NNRTIs against wild-type and K103N mutant viruses” (Bioorg Med Chem, 2021).

Target: Human immunodeficiency virus type 1 reverse transcriptase (Human immunodeficiency virus 1, UniProt Q72547)
Experiment: Inhibition of HIV-1 reverse transcriptase assessed as inhibition of biotin-dUTP incorporation into cDNA measured after 1 hr by ELISA

Compound Cc1cc(C#N)cc(C)c1Oc1nc(Nc2ccc(C#N)cc2)nc(N)c1Br [ETRAVIRINE] has an IC50 of 0.048 µM.
